PubChem BioAssay AID624099 – ICCB-Longwood | 2012

Aim: 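Human genes that papillomavirus E2 requires to repress the HPV18 LCR promoter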 (primary screen)
Cells: human C33A cervical carcinoma cells (HPV-negative) stably expressing BPV1 E2 and an HPV18 LCR luciferase reporter
Reagent: siRNA pool against human genes, 40 nM
Duration: 72 h
Read-out: 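Per-well luciferase luminescence, z-scored on each plate against the plate mean and SD with control wells left out, then averaged across three replicate plates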
Reading the numbers: mean z-score and z-score: higher = stronger reporter signal, weaker E2 silencing
Rule for the call: 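Hit if mean z-score reaches 2 and two or more of three replicate z-scores also reach 2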
The deposit covers about 21,000 reagents; this is a part drawn at random. 497 of all reagents (2.4%) were called active. 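Higher z means weaker E2 silencing; only reporter increases were scored, and knock-downs that hurt cell survival may mask genuine repressor factors.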 Unmarked entries are inactive. Reagents against one gene are numbered here.

Which result is listed for LOC402207 (retired record) #1?
mean z-score: 0.2; z-score, replicate A: -0.13; z-score, replicate B: 0.48; z-score, replicate C: 0.23

With LOC402207 (retired record) #2, what was measured?
mean z-score: 0.45; z-score, replicate A: 0.73; z-score, replicate B: 0.4; z-score, replicate C: 0.23

How did the screen score LOC391553 (retired record)?
mean z-score: 0.14; z-score, replicate A: 0.29; z-score, replicate B: 0.12; z-score, replicate C: 0.03

With CCDC88C, what was measured?
mean z-score: 0.64; z-score, replicate A: 0.4; z-score, replicate B: 0.8; z-score, replicate C: 0.71

What is on record for RIPK4?
mean z-score: 0.48; z-score, replicate A: 0.33; z-score, replicate B: 0.78; z-score, replicate C: 0.33

With GALNTL5, what was measured?
mean z-score: -0.91; z-score, replicate A: -1.21; z-score, replicate B: -0.6; z-score, replicate C: -0.9

With TAPBP, what does the deposit list?
mean z-score: -0.4; z-score, replicate A: -0.36; z-score, replicate B: -0.31; z-score, replicate C: -0.53

With KIR3DL1, what was measured?
mean z-score: 0.3; z-score, replicate A: 0.25; z-score, replicate B: 0.01; z-score, replicate C: 0.64

For BMP3, what was measured?
mean z-score: 1.77; z-score, replicate A: 2.31; z-score, replicate B: 1.55; z-score, replicate C: 1.45

For DOK5, what does the deposit list?
mean z-score: -0.96; z-score, replicate A: -1.05; z-score, replicate B: -0.93; z-score, replicate C: -0.91

With ANKRD20A19P, what does the deposit list?
mean z-score: 1.52; z-score, replicate A: 1.11; z-score, replicate B: 1.91; z-score, replicate C: 1.55

What did the screen give for SLC5A1?
mean z-score: -0.63; z-score, replicate A: -0.89; z-score, replicate B: -0.84; z-score, replicate C: -0.18

What is on record for PGAP1?
mean z-score: -0.15; z-score, replicate A: -0.11; z-score, replicate B: -0.16; z-score, replicate C: -0.19

With SLC6A4, how do the results read?
mean z-score: 0.27; z-score, replicate A: -0.02; z-score, replicate B: 0.54; z-score, replicate C: 0.29

For SYCN, what does the deposit list?
mean z-score: -1.25; z-score, replicate A: -1.04; z-score, replicate B: -1.29; z-score, replicate C: -1.42

For INTU, what does the deposit list?
mean z-score: 0.58; z-score, replicate A: 1.01; z-score, replicate B: 0.61; z-score, replicate C: 0.13

For TRRAP, what does the deposit list?
mean z-score: 1.44; z-score, replicate A: 1.05; z-score, replicate B: 1.68; z-score, replicate C: 1.6

For FANCD2, what was measured?
mean z-score: -0.28; z-score, replicate A: -0.23; z-score, replicate B: -0.18; z-score, replicate C: -0.43

What is on record for TRPM8?
mean z-score: -0.16; z-score, replicate A: 0.11; z-score, replicate B: -0.3; z-score, replicate C: -0.29

How did the screen score OTOGL?
mean z-score: -0.9; z-score, replicate A: -0.87; z-score, replicate B: -1.08; z-score, replicate C: -0.76

What is on record for DPM1?
mean z-score: -0.12; z-score, replicate A: 0.24; z-score, replicate B: -0.55; z-score, replicate C: -0.06

3 entries from above, ordered by “z-score, replicate C”, descending:
SLC6A4 | mean z-score: 0.27; z-score, replicate A: -0.02; z-score, replicate B: 0.54; z-score, replicate C: 0.29
PGAP1 | mean z-score: -0.15; z-score, replicate A: -0.11; z-score, replicate B: -0.16; z-score, replicate C: -0.19
SYCN | mean z-score: -1.25; z-score, replicate A: -1.04; z-score, replicate B: -1.29; z-score, replicate C: -1.42
